Reference: article PMC7794376 (Nature Communications, 2021)

Sequences of proteins named here, by UniProt entry; tags and fusion partners are left off. A change or cut given only in a name is not applied to a line headed by its entry.
UniProt P9WNZ1: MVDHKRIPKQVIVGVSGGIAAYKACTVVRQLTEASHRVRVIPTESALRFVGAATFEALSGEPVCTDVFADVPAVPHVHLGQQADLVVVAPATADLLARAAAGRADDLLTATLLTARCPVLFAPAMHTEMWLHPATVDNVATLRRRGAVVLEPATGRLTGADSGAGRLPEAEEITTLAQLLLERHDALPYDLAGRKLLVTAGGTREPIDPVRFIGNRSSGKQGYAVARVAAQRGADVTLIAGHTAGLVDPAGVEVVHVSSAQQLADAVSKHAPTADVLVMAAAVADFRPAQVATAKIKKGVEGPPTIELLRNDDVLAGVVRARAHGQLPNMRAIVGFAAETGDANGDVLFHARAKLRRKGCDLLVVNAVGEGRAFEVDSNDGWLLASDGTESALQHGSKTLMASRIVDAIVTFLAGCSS

Biological target: MtbCoaBC (Mycobacterium tuberculosis, UniProt P9WNZ1)
Assay type: biochemical
Details: CoaB activity; […] CTP, […] PPA, 500 µM L-cysteine; average of three independent experiments ± SD; read-out: IC50 EnzChek MtbCoaBC

Substance: succinyl-CoA [SucCoA]
- IC50: 38 ± 2 µM
